Data on one compound can be found in US8575208B2, “Inhibitors of serine proteases” (priority 2007, dated 2013).

The chains behind the UniProt entries cited, without tags or fusion partners. Residues count along the entry.
UniProt Q9WMX2, 1027-1657 limits assumed: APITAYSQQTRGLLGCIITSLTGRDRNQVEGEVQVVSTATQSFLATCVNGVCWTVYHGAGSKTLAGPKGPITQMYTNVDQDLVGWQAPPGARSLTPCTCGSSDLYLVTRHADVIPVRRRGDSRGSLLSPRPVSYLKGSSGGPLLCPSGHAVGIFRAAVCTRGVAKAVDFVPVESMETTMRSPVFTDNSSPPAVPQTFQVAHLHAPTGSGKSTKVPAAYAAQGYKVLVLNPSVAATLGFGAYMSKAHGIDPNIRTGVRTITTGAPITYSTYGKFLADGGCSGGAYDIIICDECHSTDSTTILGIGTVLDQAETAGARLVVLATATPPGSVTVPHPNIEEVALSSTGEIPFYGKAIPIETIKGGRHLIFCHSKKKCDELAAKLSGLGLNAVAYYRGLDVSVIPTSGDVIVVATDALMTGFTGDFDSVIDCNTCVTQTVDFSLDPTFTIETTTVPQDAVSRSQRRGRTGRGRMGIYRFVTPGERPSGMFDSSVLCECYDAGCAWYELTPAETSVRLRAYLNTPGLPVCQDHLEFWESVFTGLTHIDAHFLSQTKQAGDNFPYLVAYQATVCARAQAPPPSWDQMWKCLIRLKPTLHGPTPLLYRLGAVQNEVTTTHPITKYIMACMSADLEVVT

pKi: −log10 of the molar value. The structures given here were assigned with low confidence; some may be wrong.

In this experiment the target is HCV NS3 serine protease (UniProt Q9WMX2). In words: HCV enzymatic assay (HCV NS3 peptide cleavage assays, apparent Ki). The experiment is classed as biochemical, hepatitis C virus. Particulars: read-out: Activity (HCV enzymatic assay activity); serine protease activity measured using the HCV Enzyme Assays; Assay No. 1 / Assay No. 2 not given. As to the method:
This assay is a modification of that described by Landro, et al. (Landro J A, Raybuck S A, Luong Y C, O'Malley E T, Harbeson S L, Morgenstern K A, Rao G and Livingston D L. Biochemistry 1997, 36, 9340-9348), and uses a peptide substrate (NS5AB), based on the NS5A/NS5B cleavage site for genotype la HCV. The substrate stock solution (25 mM) was prepared in DMSO containing 0.2 M DTT and stored at −20° C. A synthetic peptide cofactor (KK4A) was used as a substitute for the central core region of NS4A. […]
The SMSY product was separated from substrate and KK4A using a microbore separation method. […] The SMSY product peak was quantitated using the data collected at […]. […]
Enzymatic activity was assessed by separation of substrate and products by reverse phase HPLC. The instrument used was a Agilent 1100 with a G1322A degasser, either a G1312A binary pump or a G1311A quaternary pump, a G1313A autosampler, a G1316A column thermostated chamber, a G1321A fluorescence detector and a G1315A diode array detector. […] The C-terminal product peak (NH2-SMSY-COOH) was quantitated using the absorbance data collected at 210 ηm. […] The C-terminal product peak (NH2-SMSYT-Asp(EDANS)-KKK-COOH) was quantitated using the fluorescence data collected at 350 ηm excitation/490 ηm emission. […]

Consider `CCC[C@H](NC(=O)[C@@H]1C[C@@]2(CN(c3ccccc3)C(=O)O2)CN1C(=O)[C@@H](NC(=O)CC1CCCCC1)C(C)(C)C)C(=O)C(=O)NC1CC1`, for which the pKi is over 6.39.
